The numbers were not newly measured in patent US20250327138A1, “METHODS AND COMPOSITIONS FOR DETECTING GUANITOXIN PRODUCING BACTERIA” (published 2025), which cites them from elsewhere.

For data set [1], the system named is acetylcholinesterase.
The conditions of data set [2]: i.p.

For the substance “(5S)-5-[(dimethylamino)methyl]-1-[hydroxy(methoxy)phosphoryl]oxy)-4,5-dihydro-1H-imidazol-2-amine”, in data set [1], the “inhibition of acetylcholinesterase (mechanism)” value is “irreversible inhibitor”. The median lethal dose (LD50) in data set [2] was 0.02 mg/kg.
